Results of unrelated studies side by side (data: NIAID ChemDB).

Common to all: tests in culture; agent: HIV-1; read-out: fold resistance

Fold resistance: result on the changed form divided by that on wild type.

SMILES	strain	mutations	cells	method	value
O=c1[nH]cnc2c1ncn2[C@@H]1O[C@H](CO)C[C@@H]1F	P119S(RT-P119S)	RT-P119S	MT-2	p24	1.4
Nc1nc2c(ncn2[C@H]2CO[C@@H](CO)O2)c(=O)[nH]1	Clinical isolate	RT-K70R Y188L	-	-	~1
Cc1cn([C@H]2C[C@H](N=[N+]=[N-])[C@@H](CO)O2)c(=O)[nH]c1=O	Q151M(RT-Q151M)	RT-Q151M	MT-2	p24	13.1
CC(C)(C)C(=O)c1sc(C(=O)NCCc2ccccc2)c(O)c1O	-	INTG-T66I N155S	-	-	17
Cc1ccnc2c1NC(=O)c1cccnc1N2C1CC1	HXB2	RT-M41L L74V V106A T215Y	C8166	p24	129
CC(C)Nc1cccnc1N1CCN(C(=O)c2cc3cc(NS(C)(=O)=O)ccc3[nH]2)CC1	A2(RT-L74V G190E)	RT-L74V G190E	H9	p24	48.3
Nc1ncnc2c1ncn2CCOCP(=O)(O)O	RT P119S V179D L214F	RT-P119S V179D L214F	MT-2	p24	1.2
Cc1ccnc2c1NC(=O)c1cccnc1N2C1CC1	HXB2	RT-L74V	HT4 + HT4 LacZ-1	plaque count	0.833
O=C(NCc1ccc(F)cc1)c1nc(N2CCCCS2(=O)=O)c2cccnc2c1O	-	INTG-T66I S153Y	-	-	3
Nc1ccn([C@H]2C[C@H](O)[C@](CO)(CF)O2)c(=O)n1	-	RT-M184V	HeLa	β-galactosidase	435
Cc1cn([C@H]2C[C@H](N=[N+]=[N-])[C@@H](CO)O2)c(=O)[nH]c1=O	J-2 (RT-Y181C)	RT-Y181C	CEM	cytopathic effect	7
Cc1cn([C@H]2C[C@H](N=[N+]=[N-])[C@@H](CO)O2)c(=O)[nH]c1=O	Recombinant	RT-T215Y	PBMC	p24	0.01
CC(C)OC(=O)OCOP(=O)(CO[C@H](C)Cn1cnc2c(N)ncnc21)OCOC(=O)OC(C)C	N119 (NNRTI-resistant RT Y181C)	RT-Y181C	MT-2	p24	0.0474
CC(C)(C)NC(=O)[C@@H]1C[C@@H]2CCCC[C@@H]2CN1C[C@@H](O)[C@H](Cc1ccccc1)NC(=O)[C@H](CC(N)=O)NC(=O)c1ccc2ccccc2n1	NL4-3	PR-L63P	MT-4	p24	2
CC(C)Oc1ccc(Cc2ccccc2)cc1C(=O)CC(=O)C(=O)O	-	INTG-T66I	-	-	1
CC(C)=CCN1c2cc(Cl)cc3[nH]c(=S)n(c23)C[C@@H]1C	-	RT-K70R K103N	MT-4	-	15
O=c1[nH]cnc2c1ncn2[C@H]1CC[C@@H](CO)O1	-	RT-Y181C	HeLa	β-galactosidase	1.375
CN[C@H]1CO[C@@H]2OCC[C@H](OC(=O)N[C@@H](Cc3ccccc3)[C@H](O)CN(CC(C)C)S(=O)(=O)c3ccc4nc(NC5CC5)sc4c3)[C@@H]21	NL4-3	L10I M46L I54V V82A	MT-4	p24 / luminescence	0.8
Nc1nc(=O)n([C@@H]2CO[C@H](CO)S2)cc1F	HXB2D (M1841I)	RT-M184I	CBMC	RT activity	1.07
Cc1ccnc2c1NC(=O)c1cccnc1N2C1CC1	A2(RT-L74V G190E)	RT-L74V G190E	H9	p24	>111
COC(=O)N[C@H](C(=O)N[C@@H](Cc1ccccc1)[C@@H](O)CN(Cc1ccc(-c2ccccn2)cc1)NC(=O)[C@@H](NC(=O)OC)C(C)(C)C)C(C)(C)C	NL4-3	L10I M46L I54V V82A	MT-4	p24 / luminescence	11
N#Cc1cc2[nH]c3ccccc3c2n(-c2ccc([N+](=O)[O-])cc2)c1=O	NNRTI-resistant	RT-K103N L100I	HeLa	luciferase	3.7
O=c1[nH]cnc2c1ncn2[C@H]1CC[C@@H](CO)O1	Recombinant	RT-Q151M	PBMC	p24	0.65
Nc1nc(NC2CC2)c2ncn([C@H]3C=C[C@@H](CO)C3)c2n1	Site-directed mutant	RT-K65R M184V	MT-2	cytopathic effect / XTT	>8
Nc1nc(=O)n([C@@H]2CS[C@H](CO)O2)cc1F	-	RT-M184V T215Y K219Q	-	-	~20
CCN[C@H]1CO[C@@H]2OCC[C@H](OC(=O)N[C@@H](Cc3ccccc3)[C@H](O)CN(CC(C)C)S(=O)(=O)c3ccc4nc(NC5CC5)sc4c3)[C@@H]21	NL4-3	L10F L33I M36I M46I I54V K55R I62V L63P A71V G73S V82T	MT-4	p24 / luminescence	1.2
CC(C)Nc1cccnc1N1CCN(C(=O)c2cc3cc(NS(C)(=O)=O)ccc3[nH]2)CC1	Q-1 (RT T139K Y181C Y188D/Y)	RT-T139K Y181C Y188D/Y	CEM	cytopathic effect	367
C#C[C@]1(CO)O[C@@H](n2cc(C)c(=O)[nH]c2=O)C[C@@H]1O	-	RT-M184I	HeLa	β-galactosidase	0.389
CC(C)CN(C[C@@H](O)[C@H](Cc1ccccc1)NC(=O)[C@H](CC(N)=O)NC(=O)c1ccc2ccccc2n1)C(=O)NC(C)(C)C	NL4-3	PR-M46I	MT-4	p24	1
Cc1ccnc2c1NC(=O)c1cccnc1N2C1CC1	Y-1 (RT-K103N)	RT-K103N	CEM	cytopathic effect	367
CC(C)CN(C[C@@H](O)[C@H](Cc1ccccc1)NC(=O)O[C@H]1CCO[C@H]2OCC[C@H]21)S(=O)(=O)c1ccc2nc(NC3CC3)sc2c1	NL4-3	L10F L33I M36I M46I I54V K55R I62V L63P A71V G73S V82T	MT-4	p24 / luminescence	7.2
O=c1[nH]cnc2c1ncn2[C@H]1CC[C@@H](CO)O1	IIIB BCH-189-resistant (RT M184V)	RT-M184V	MT-4	p24	3.68
Cc1cn([C@H]2C[C@H](N=[N+]=[N-])[C@@H](CO)O2)c(=O)[nH]c1=O	Recombinant	RT-M41L S68N G112S M184V	HeLa	luciferase	0.1
CN[C@H]1CO[C@@H]2OCC[C@H](OC(=O)N[C@@H](Cc3cccc(OC)c3)[C@H](O)CN(CC(C)C)S(=O)(=O)c3ccc4nc(NC(C)C)sc4c3)[C@@H]21	NL4-3	L10F L33I M36I M46I I54V K55R I62V L63P A71V G73S V82T	MT-4	p24 / luminescence	0.2
Nc1nc(=O)n([C@@H]2CS[C@H](CO)O2)cc1F	Site-directed mutant	RT-K65R H221Y	MT-2	cytopathic effect / XTT	13.6
Nc1ccn([C@@H]2CO[C@H](CO)S2)c(=O)n1	HXB2	RT-M184V	C8166	p24	2
Cn1c2ccccc2c2c1cc(C#N)c(=O)n2-c1ccc([N+](=O)[O-])cc1	NRTI resistant	RT-M41L E44D D67N T69D V118I M184V L210W T215Y	HeLa	luciferase	11.2
O=c1[nH]cnc2c1ncn2[C@H]1CC[C@@H](CO)O1	Q151M(RT-Q151M)	RT-Q151M	MT-2	p24	1.8

A second listing of 5 rows from above:

SMILES | strain | mutations | cells | method | value
CC(C)(C)NC(=O)[C@@H]1C[C@@H]2CCCC[C@@H]2CN1C[C@@H](O)[C@H](Cc1ccccc1)NC(=O)[C@H](CC(N)=O)NC(=O)c1ccc2ccccc2n1 | NL4-3 | PR-L63P | MT-4 | p24 | 2
Cc1ccnc2c1NC(=O)c1cccnc1N2C1CC1 | A2(RT-L74V G190E) | RT-L74V G190E | H9 | p24 | >111
CC(C)(C)C(=O)c1sc(C(=O)NCCc2ccccc2)c(O)c1O | - | INTG-T66I N155S | - | - | 17
O=c1[nH]cnc2c1ncn2[C@H]1CC[C@@H](CO)O1 | - | RT-Y181C | HeLa | β-galactosidase | 1.375
COC(=O)N[C@H](C(=O)N[C@@H](Cc1ccccc1)[C@@H](O)CN(Cc1ccc(-c2ccccn2)cc1)NC(=O)[C@@H](NC(=O)OC)C(C)(C)C)C(C)(C)C | NL4-3 | L10I M46L I54V V82A | MT-4 | p24 / luminescence | 11

Lines come from different laboratories, so protocols vary. Blank or dashed fields: not listed here.